Reference: patent US12486489B2, “Culture medium for testing drug resistance of H.pylori as well as preparation method and use thereof” (priority 2022, dated 2025)

Experiments:
[1] = system: H. pylori; assay: Growth of H. pylori and colour change on characteristic culture medium with added antibiotics; format: cell-based, Helicobacter pylori; design: key: x: refers to non-growth of H. pylori and no change in the color of the culture medium after 72 hours of culture; *: refers to a color change of the culture medium after 36 hours of culture and a growth of H. pylori after 72 hours of culture
Method: (§1) (3) Preparation of bacterial solution: H. pylori grown in logarithmic phase on a solid plate is taken to prepare a bacterial suspension by using BHI, and the concentration OD600 is adjusted to 0.3 (1×10^8 CFU/mL), diluted 10 times for the subsequent use.
(§2) (4) Inoculation of bacterial solution: 10 μL of bacterial solution is taken and added dropwise to the characteristic culture medium and the results are determined after cultivating for 36 hours.

[2] = system: H. pylori; assay: Growth of H. pylori on Columbia culture medium with added antibiotics; format: cell-based, Helicobacter pylori; design: key: +: refers to a growth of H. pylori; −: refers to non-growth of H. pylori
Method: as §1, §2

[3] = system: H. pylori; assay: MIC of laboratory H. pylori strains by micro dilution method; format: cell-based; details: Helicobacter pylori
Method: (3) Preparation of bacterial solution: H. pylori grown in logarithmic phase on a solid plate is taken, BHI culture medium is used to prepare a bacterial suspension. The concentration of the bacterial solution is adjusted to 1×10^8 CFU/mL (OD600 is 0.3), diluted 10 times, 100 times, and 1000 times to implement a final concentration of […], for the subsequent use.
(4) Inoculation of bacterial solution: 10 μL of the above bacterial solution for the subsequent use is taken and added to wells the 1-10-th and the 12-th well (bacterial working concentration is 1×10^6 CFU/mL), the 11-th well serves as a non-bacterial control and only sterile water is added. The wells are cultivated for 72 hours to determine the results.

[4] = system: H. pylori; assay: Verification of resistance breakpoint: growth of laboratory strains on Columbia solid culture medium with added antibiotics, 72 hours; format: cell-based, Helicobacter pylori; details: for experimental resistant strains that grow: levofloxacin 0.5, clarithromycin 0.5, metronidazole 4, amoxicillin 0.5 μg/mL; for growth of bacterial: antibiotic 0.0625 μg/mL
Method: The plates are cooled and inverted for approximately 10 mL/piece, marked properly for the subsequent use.
(2) Preparation of bacterial solution: H. pylori grown in logarithmic phase on a solid plate is taken to prepare a bacterial suspension by using BHI. The concentration OD600 is adjusted to 0.3 (1×10^8 CFU/mL), diluted 10 times for the subsequent use.
(3) Inoculation of bacterial solution: 10 μL of bacterial solution is taken and added to Columbia culture medium and the results are determined after cultivating for 72 hours.
(4) Result determination: the minimum drug concentration for no growth of bacteria on the plate is the minimum inhibitory concentration of the bacteria against the drug.

[5] = strain 159, levofloxacin 0.5, clarithromycin 0.5, metronidazole 4, amoxicillin 0.0625 μg/mL
[6] = strain 161, levofloxacin 0.5, clarithromycin 0.5, metronidazole 4, amoxicillin 0.0625 μg/mL
[7] = strain 162, levofloxacin 0.5, clarithromycin 0.5, metronidazole 4, amoxicillin 0.0625 μg/mL
[8] = strain 163, levofloxacin 0.5, clarithromycin 0.5, metronidazole 4, amoxicillin 0.0625 μg/mL
[9] = strain 286, levofloxacin 0.5, clarithromycin 0.5, metronidazole 4, amoxicillin 0.0625 μg/mL
[10] = strain 287, levofloxacin 0.5, clarithromycin 0.5, metronidazole 4, amoxicillin 0.0625 μg/mL
[11] = strain 289, levofloxacin 0.5, clarithromycin 0.5, metronidazole 4, amoxicillin 0.0625 μg/mL
[12] = strain 290, levofloxacin 0.5, clarithromycin 0.5, metronidazole 4, amoxicillin 0.0625 μg/mL
[13] = strain 26695, levofloxacin 0.5, clarithromycin 0.5, metronidazole 4, amoxicillin 0.0625 μg/mL
[14] = strain G27, levofloxacin 0.5, clarithromycin 0.5, metronidazole 4, amoxicillin 0.0625 μg/mL

CC1(C)S[C@@H]2[C@H](NC(=O)[C@H](N)c3ccc(O)cc3)C(=O)N2[C@H]1C(=O)O [Amoxicillin, amoxicillin]
growth of H. pylori and color change of the culture medium [1, 5]: * | growth of H. pylori and color change of the culture medium [1, 6]: * | growth of H. pylori and color change of the culture medium [1, 7]: * | growth of H. pylori and color change of the culture medium [1, 8]: * | growth of H. pylori and color change of the culture medium [1, 9]: * | growth of H. pylori and color change of the culture medium [1, 10]: * | growth of H. pylori and color change of the culture medium [1, 11]: * | growth of H. pylori and color change of the culture medium [1, 12]: * | growth of H. pylori and color change of the culture medium [1, 13]: x | growth of H. pylori and color change of the culture medium [1, 14]: x | growth of H. pylori [2, 5]: + | growth of H. pylori [2, 6]: + | growth of H. pylori [2, 7]: + | growth of H. pylori [2, 8]: + | growth of H. pylori [2, 9]: + | growth of H. pylori [2, 10]: + | growth of H. pylori [2, 11]: + | growth of H. pylori [2, 12]: + | growth of H. pylori [2, 13]: − | growth of H. pylori [2, 14]: − | MIC ([3]; resistant strains 159, 161, 162, 163, 286, 287, 289, and 290, bacterial count 1×10^6 CFU/mL, read-out: MICs): 0.0625 to 2 µg/mL | MIC ([3]; strain 159, bacterial count 10^6 CFU/mL (second line of the strain), read-out: minimum inhibitory concentration (MIC)): 0.0625 µg/mL | MIC ([3]; strain 161, bacterial count 10^6 CFU/mL (second line of the strain), read-out: minimum inhibitory concentration (MIC)): 0.0625 µg/mL | MIC ([3]; strain 162, bacterial count 10^6 CFU/mL (second line of the strain), read-out: minimum inhibitory concentration (MIC)): 0.0625 µg/mL | MIC ([3]; strain 287, bacterial count 10^4 CFU/mL, read-out: minimum inhibitory concentration (MIC)): 0.0625 µg/mL | MIC ([3]; strain 26695, bacterial count 10^6 CFU/mL (first line of the strain), read-out: minimum inhibitory concentration (MIC)): 0.0625 µg/mL | experimental resistant strains that grow [4]: 90% | growth of bacterial ([4]; strain 159): + | growth of bacterial ([4]; strain 161): + | growth of bacterial ([4]; strain 162): − | growth of bacterial ([4]; strain 163): + | growth of bacterial ([4]; strain 286): + | growth of bacterial ([4]; strain 287): + | growth of bacterial ([4]; strain 289): + | growth of bacterial ([4]; strain 290): + | growth of bacterial ([4]; strain 26695): − | growth of bacterial ([4]; strain G27): −

CC[C@H]1OC(=O)[C@H](C)[C@@H](O[C@H]2C[C@@](C)(OC)[C@@H](O)[C@H](C)O2)[C@H](C)[C@@H](O[C@@H]2O[C@H](C)C[C@H](N(C)C)[C@H]2O)[C@](C)(OC)C[C@@H](C)C(=O)[C@H](C)[C@@H](O)[C@]1(C)O [Clarithromycin, clarithromycin]
experimental resistant strains that grow [4]: 90%

Read-outs that look alike come from different tables or passages of the source.
